Anti-infective test results gathered from many reports (values: NIAID ChemDB through PubChem).

Shared fields: tests on isolated targets; species: HIV-1; target: Reverse transcriptase

ICn is the concentration giving n% inhibition.

{"compound": "Nc1ncnc2c1ncn2[C@H]1CC[C@@H](COP(=O)(O)OP(=O)(O)OP(=O)(O)O)O1", "measure": "IC50", "read by": "nucleotide incorporation / radiometric", "changes": "RT-A62V V75I F77L F116Y Q151M", "value": "38 µM"}
{"compound": "CCN1c2ncc(CCOc3ccc(CCC(=O)O)c4c3CCCC4)cc2C(=O)N(C)c2cccnc21", "measure": "IC50", "strain": "WT", "read by": "nucleotide incorporation / radiometric", "value": "<0.1 µM"}
{"compound": "CCOC(=O)CN1C(=O)c2ccnnc2Oc2c(C)cc(C)cc21", "measure": "IC50", "read by": "ELISA", "value": "~330 µM"}
{"compound": "COC(=O)c1ccc(NC(=O)Cc2ccc(Oc3cc(C#N)cc(C#N)c3)c(Cl)c2)cc1", "measure": "IC50", "read by": "nucleotide incorporation / radiometric", "value": "100 µM"}
{"compound": "CCN1c2ccccc2N(C)C(=O)c2cncnc21", "measure": "IC50", "strain": "IIIB", "read by": "nucleotide incorporation / radiometric", "value": ">30 µM"}
{"compound": "CCN1c2ncc(CC(O)c3ccncc3)cc2C(=O)N(C)c2ccc(F)nc21", "measure": "IC50", "strain": "WT", "read by": "nucleotide incorporation / radiometric", "value": "<1 µM"}
{"compound": "FC(F)(F)c1ccc2c(c1)CN(c1nn3c(C4CC4)nnc3c3ccccc13)CC2", "measure": "IC90", "strain": "98US_MSC5016", "read by": "RT activity / fluorescence", "value": "7.95 µM"}
{"compound": "CCN1C(=O)c2ccnnc2Oc2c(C)cc(C)cc21", "measure": "IC50", "read by": "ELISA", "value": "<330 µM"}
{"compound": "Cc1ccc(C(=O)Nc2cccc(C(=O)Nc3ccc(S(=O)(=O)O)c4cc(S(=O)(=O)O)cc(S(=O)(=O)O)c34)c2)cc1NC(=O)Nc1cc(C(=O)Nc2cccc(C(=O)Nc3ccc(S(=O)(=O)O)c4cc(S(=O)(=O)O)cc(S(=O)(=O)O)c34)c2)ccc1C", "measure": "IC50", "strain": "IIIB", "read by": "nucleotide incorporation", "value": "22 µg/mL"}
{"compound": "O=c1[nH]c(=O)n([C@H]2C[C@H](O)[C@@H](COP(=O)(O)OP(=O)(O)OP(=O)(O)O)O2)cc1-c1cccs1", "measure": "IC50", "read by": "nucleotide incorporation / radiometric", "value": "0.13 µg/mL"}
{"compound": "FC(F)(F)c1nnc2c3ccccc3c(N3CCc4ccccc4C3)nn12", "measure": "IC90", "strain": "KER2008", "read by": "RT activity / fluorescence", "value": "1.51 µM"}
{"compound": "O=c1c(O[C@@H]2O[C@H](CO)[C@@H](O)[C@H](O)[C@H]2O)c(-c2ccc(O)cc2)oc2cc(O)cc(O)c12", "measure": "IC50", "value": ">1000 µM"}
{"compound": "COc1c(/C=C/C(=O)c2ccc(Cl)cc2)ccc2ccccc12", "measure": "IC50", "read by": "RT activity / nucleotide incorporation", "value": "5 µM"}
{"compound": "CCN1c2ncc(CCc3ccncc3)cc2C(=O)N(C)c2ccc(I)nc21", "measure": "IC50", "read by": "nucleotide incorporation / radiometric", "changes": "RT-Y181C", "value": "<1 µM"}
{"compound": "Cc1cn([C@H]2C[C@H](O)[C@@H](COC(=O)CCCCC(=O)O)O2)c(=O)[nH]c1=O", "measure": "IC50", "read by": "nucleotide incorporation / radiometric", "value": "80 µg/mL"}
{"compound": "COc1cc2c(cc1[N+](=O)[O-])CN(c1nn3c(C4CC4)nnc3c3ccccc13)CC2", "measure": "IC50", "strain": "IIIB", "read by": "RT activity / fluorescence", "value": "29.8 µM"}
{"compound": "CC(C)N1c2ccccc2N(c2ccccc2)C(=O)c2cnn(C)c21", "measure": "IC50", "strain": "IIIB", "read by": "nucleotide incorporation / radiometric", "value": ">30 µM"}
{"compound": "CCN1c2ncc(CCOc3ccc(CCC(=O)O)c4ccccc34)cc2C(=O)N(C)c2ccc(Cl)nc21", "measure": "IC50", "read by": "nucleotide incorporation / radiometric", "changes": "RT-Y188L", "value": ">1 µM"}
{"compound": "COc1c(/C=C/C(=O)c2cccc([N+](=O)[O-])c2)ccc2ccccc12", "measure": "IC50", "read by": "RT activity / nucleotide incorporation", "value": "5 µM"}
{"compound": "O=C(O[C@@H]1O[C@@H]2COC(=O)c3cc(O)c(O)c(O)c3-c3c(cc(O)c(O)c3O)C(=O)O[C@H]2[C@@H]2OC(=O)c3cc(O)c(O)c(O)c3-c3c(cc(O)c(O)c3O)C(=O)O[C@@H]12)c1cc(O)c(O)c(O)c1", "measure": "IC50", "strain": "IIIB", "read by": "RT activity", "value": "20 µM"}
{"compound": "CCN1c2ncc(CCOc3ccc(CC(C)C(=O)O)c4ccccc34)cc2C(=O)N(C)c2ccc(F)nc21", "measure": "IC50", "read by": "nucleotide incorporation / radiometric", "changes": "RT-V106A", "value": ">1 µM"}
{"compound": "CCN1C(=O)c2ccnnc2Oc2ccc(OC)cc21", "measure": "IC50", "read by": "ELISA", "value": "<330 µM"}
{"compound": "O=C(O)CCCCCC(=O)OC[C@H]1O[C@@H](n2cc(-c3cccs3)c(=O)[nH]c2=O)C[C@@H]1O", "measure": "IC50", "read by": "nucleotide incorporation / radiometric", "value": ">200 µg/mL"}
{"compound": "CCN1c2ncc(CCOc3ccc4cc(CC(=O)O)ccc4c3C)cc2C(=O)N(C)c2cccnc21", "measure": "IC50", "read by": "nucleotide incorporation / radiometric", "changes": "RT-Y188L", "value": "0.1–1 µM"}
{"compound": "CC(C)=CCOc1cc(NC(=S)c2ccoc2C)ccc1Cl", "measure": "IC50", "changes": "RT-E138K(P66)", "value": "0.01 µM"}
{"compound": "COc1ccc(C(=O)/C=C/c2ccc3ccccc3c2OC)cc1", "measure": "IC50", "read by": "RT activity / nucleotide incorporation", "value": "6 µM"}
{"compound": "CCN1c2ncc(CCOc3ccc(C(=O)O)c4c3CCN(C(=O)N(C)C)C4)cc2C(=O)N(C)c2cccnc21", "measure": "IC50", "read by": "nucleotide incorporation / radiometric", "changes": "RT-K103N Y181C", "value": "<0.1 µM"}
{"compound": "COC(=O)c1ccc(NC(=O)Cc2ccc(Oc3cc(C#N)cc(C#N)c3)c(Cl)c2)cc1Cl", "measure": "IC50", "read by": "nucleotide incorporation / radiometric", "value": "10 µM"}
{"compound": "O=C(Nc1cccc(-c2ccc(C(=O)Nc3ccc(S(=O)(=O)O)c4cc(S(=O)(=O)O)cc(S(=O)(=O)O)c34)cc2)c1)Nc1cccc(-c2ccc(C(=O)Nc3ccc(S(=O)(=O)O)c4cc(S(=O)(=O)O)cc(S(=O)(=O)O)c34)cc2)c1", "measure": "IC50", "strain": "IIIB", "read by": "nucleotide incorporation", "value": "52 µg/mL"}
{"compound": "Cc1cc(C)cc(S(=O)(=O)c2c(C(=O)NC(C)C(N)=O)[nH]c3ccc(Cl)cc23)c1", "measure": "IC50", "read by": "RT activity", "changes": "K103N", "value": "0.477 µM"}
{"compound": "O=C1Nc2ccc(Cl)cc2C(C#CC2CCCCC2)(C(F)(F)F)O1", "measure": "IC50", "read by": "nucleotide incorporation", "value": "0.083 µM"}
{"compound": "Cc1cn([C@H]2C[C@H](O)[C@@H](COC(=O)C3CCC(C(=O)O)CC3)O2)c(=O)[nH]c1=O", "measure": "IC50", "read by": "nucleotide incorporation / radiometric", "value": "140 µg/mL"}
{"compound": "NS(=O)(=O)c1ccc(NC(=O)Cc2ccc(Oc3c(Cl)cccc3Cl)c(Cl)c2)cc1", "measure": "IC50", "read by": "nucleotide incorporation / radiometric", "value": "100 µM"}
{"compound": "Cc1cccc(C(C)c2c(C(C)C)c(=O)[nH]c(=O)n2COCc2ccccc2)c1", "measure": "IC50", "read by": "RT activity / fluorescence", "value": "0.55 µM"}
{"compound": "CCN1c2ncc(CCOc3ccc(C(=O)O)c4c3CCCC4)cc2C(=O)N(C)c2ccc(C)nc21", "measure": "IC50", "read by": "nucleotide incorporation / radiometric", "changes": "RT-Y188L", "value": "0.1–1 µM"}
{"compound": "CC(C)N1c2ccccc2N(C)C(=O)c2cnn(C)c21", "measure": "IC50", "strain": "IIIB", "read by": "nucleotide incorporation / radiometric", "value": ">30 µM"}
{"compound": "c1ccc(-c2nnc3c4ccccc4c(N4CCc5ccccc5C4)nn23)cc1", "measure": "IC50", "strain": "98US_MSC5016", "read by": "RT activity / fluorescence", "value": "87.2 µM"}
{"compound": "CCN1c2ncc(CCc3ccnc(C(=O)OC)c3)cc2C(=O)N(C)c2ccc(Cl)nc21", "measure": "IC50", "strain": "WT", "read by": "nucleotide incorporation / radiometric", "value": "<1 µM"}
{"compound": "O=C1NCC(CCC2(C(F)(F)F)OC(=O)Nc3ccc(Cl)cc32)O1", "measure": "IC50", "strain": "A17", "read by": "nucleotide incorporation", "changes": "RT-K103N Y181C", "value": "1.9 µM"}
{"compound": "Cc1cc(C)cc(S(=O)(=O)c2c(C(=O)NC(C)CC(N)=O)[nH]c3ccc(Cl)cc23)c1", "measure": "IC50", "read by": "RT activity", "changes": "WT", "value": "0.49 µM"}
{"compound": "Cc1cc(C(=O)Nc2ccc(S(=O)(=O)O)c3cc(S(=O)(=O)O)cc(S(=O)(=O)O)c23)ccc1NC(=O)Nc1ccc(C(=O)Nc2ccc(S(=O)(=O)O)c3cc(S(=O)(=O)O)cc(S(=O)(=O)O)c23)cc1C", "measure": "IC50", "strain": "IIIB", "read by": "nucleotide incorporation", "value": "70 µg/mL"}
{"compound": "Nc1ccn([C@H]2CC[C@@H](COP(=O)(O)OP(=O)(O)OP(=O)(O)O)O2)c(=O)n1", "measure": "IC50", "read by": "nucleotide incorporation / radiometric", "changes": "RT-A62V", "value": "0.21 µM"}
{"compound": "CC(C)N1c2ccccc2N(C)C(=O)c2cncnc21", "measure": "IC50", "strain": "IIIB", "read by": "nucleotide incorporation / radiometric", "value": ">30 µM"}
{"compound": "O=S(=O)(O)c1cc(Nc2ccnc3cc(Cl)ccc23)c2c(S(=O)(=O)O)cc(S(=O)(=O)O)cc2c1", "measure": "IC50", "strain": "IIIB", "read by": "nucleotide incorporation", "value": "50 µg/mL"}
{"compound": "CCc1ccccc1NC(=O)Cc1ccc(Oc2cc(C#N)cc(C#N)c2)c(Cl)c1", "measure": "IC50", "read by": "nucleotide incorporation / radiometric", "value": "100 µM"}
{"compound": "Cc1ccc2c(c1)N(C(C)C)C(=O)c1ccnnc1O2", "measure": "IC50", "read by": "ELISA", "value": "<330 µM"}
{"compound": "COc1cc(CC(=O)Nc2ccc(CS(N)(=O)=O)cc2)ccc1Oc1cc(Cl)cc(C#N)c1", "measure": "IC50", "read by": "nucleotide incorporation / radiometric", "value": "10 µM"}
{"compound": "CCCN1C(=O)c2ccnnc2Oc2ccc(OC)cc21", "measure": "IC50", "read by": "ELISA", "value": "~330 µM"}
{"compound": "COC(=O)c1ccc(NC(=O)Cc2ccc(Oc3cc(C#N)cc(C#N)c3)c(Cl)c2)cc1C", "measure": "IC50", "read by": "nucleotide incorporation / radiometric", "value": "100 µM"}
{"compound": "Cc1cn([C@H]2C[C@H](O)[C@@H](COC(=O)CCCCCC(=O)O)O2)c(=O)[nH]c1=O", "measure": "IC50", "read by": "nucleotide incorporation / radiometric", "value": ">200 µg/mL"}
{"compound": "CCN1c2ccccc2N(c2ccccc2)C(=O)c2cnn(C)c21", "measure": "IC50", "strain": "IIIB", "read by": "nucleotide incorporation / radiometric", "value": ">30 µM"}
{"compound": "CCOn1c(C)nc2c(C)cccc21", "measure": "IC50", "value": "34.8 µM"}
{"compound": "Cc1ccc2c(c1)N(CCCCl)C(=O)c1ccnnc1O2", "measure": "IC50", "read by": "ELISA", "value": "~330 µM"}
{"compound": "Nc1nc2c(ncn2[C@@H]2C=C[C@H](OCP(=O)(O)OP(=O)(O)C(F)(F)P(=O)(O)O)C2)c(=O)[nH]1", "measure": "IC50", "value": "5.8 µM"}
{"compound": "Cc1ccc(C(=O)Nc2cc(C(=O)Nc3cc(C(=O)Nc4ccc(S(=O)(=O)O)c5cc(S(=O)(=O)O)cc(S(=O)(=O)O)c45)ccc3C)ccc2C)cc1NC(=O)Nc1cc(C(=O)Nc2cc(C(=O)Nc3cc(C(=O)Nc4ccc(S(=O)(=O)O)c5cc(S(=O)(=O)O)cc(S(=O)(=O)O)c45)ccc3C)ccc2C)ccc1C", "measure": "IC50", "strain": "IIIB", "read by": "nucleotide incorporation", "value": "28 µg/mL"}
{"compound": "N#Cc1cc(C#N)cc(Oc2ccc(CC(=O)Nc3ccc(S(=O)(=O)N4CCCCC4)cc3)cc2Cl)c1", "measure": "IC50", "read by": "nucleotide incorporation / radiometric", "value": "100 µM"}
{"compound": "Cc1cn([C@H]2C[C@H](N=[N+]=[N-])[C@@H](COP(=O)(O)C(F)(F)P(=O)(O)OP(=O)(O)c3ccccc3)O2)c(=O)[nH]c1=O", "measure": "IC50", "read by": "fluorescence", "value": ">0.5 µM"}
{"compound": "C=CCn1c2c(c(=O)[nH]c1=O)CCCCC2c1ccccc1", "measure": "IC50", "read by": "ELISA", "value": ">200 µM"}

Repeating the final 6 entries:

compound,measure,strain,read by,changes,value
Cc1ccc2c(c1)N(CCCCl)C(=O)c1ccnnc1O2,IC50,-,ELISA,-,~330 µM
Nc1nc2c(ncn2[C@@H]2C=C[C@H](OCP(=O)(O)OP(=O)(O)C(F)(F)P(=O)(O)O)C2)c(=O)[nH]1,IC50,-,-,-,5.8 µM
Cc1ccc(C(=O)Nc2cc(C(=O)Nc3cc(C(=O)Nc4ccc(S(=O)(=O)O)c5cc(S(=O)(=O)O)cc(S(=O)(=O)O)c45)ccc3C)ccc2C)cc1NC(=O)Nc1cc(C(=O)Nc2cc(C(=O)Nc3cc(C(=O)Nc4ccc(S(=O)(=O)O)c5cc(S(=O)(=O)O)cc(S(=O)(=O)O)c45)ccc3C)ccc2C)ccc1C,IC50,IIIB,nucleotide incorporation,-,28 µg/mL
N#Cc1cc(C#N)cc(Oc2ccc(CC(=O)Nc3ccc(S(=O)(=O)N4CCCCC4)cc3)cc2Cl)c1,IC50,-,nucleotide incorporation / radiometric,-,100 µM
Cc1cn([C@H]2C[C@H](N=[N+]=[N-])[C@@H](COP(=O)(O)C(F)(F)P(=O)(O)OP(=O)(O)c3ccccc3)O2)c(=O)[nH]c1=O,IC50,-,fluorescence,-,>0.5 µM
C=CCn1c2c(c(=O)[nH]c1=O)CCCCC2c1ccccc1,IC50,-,ELISA,-,>200 µM

Neighbouring rows are from separate reports. Two numbers with a dash give a range or band. An empty or dashed field is not shown.